Anti-infective test results gathered from many reports (values: NIAID ChemDB through PubChem).

Shared fields: growth or infection tests; organism: Cryptosporidium parvum; measure: inhibition

Neighbouring rows are from separate reports. An empty or dashed field is not shown. Percent inhibition refers to the dose given; in toxicity tests it is the harm to the cells.

structure | tested at | cells | strain or isolate | method | value
NS(=O)(=O)c1cc([N+](=O)[O-])c(N(CCO)CCO)c([N+](=O)[O-])c1 | 10 µM | MDCK cells |  | ELISA / luminescence | 0%
O=S(=O)(F)Cc1ccccc1 | 1000 µM |  |  | cell count / microscopy | 31.1%
Nc1ncnc2c1ncn2[C@@H]1O[C@H](CO)[C@@H](O)[C@@H]1O | 100 µg/mL |  |  |  | 5%
CCCc1ncc(C[n+]2ccccc2C)c(N)n1 | 0.8 µg/mL | L929 | Calf isolate |  | 36.6%
O=c1[nH]c(=O)n([C@H]2C[C@H](O)[C@@H](CO)O2)cc1/C=C/Br | 100 µg/mL |  |  |  | 10%
Cc1c(O)cccc1C(=O)N[C@@H](CSc1ccccc1)[C@H](O)CN1C[C@H]2CCCC[C@H]2C[C@H]1C(=O)NC(C)(C)C | 2.5 µg/mL | HCT-8 |  |  | 15%
Nc1ccn([C@@H]2O[C@H](CO)[C@@H](O)[C@@H]2O)c(=O)n1 | 10 µg/mL |  |  |  | 90%
CC(C)c1nc(CN(C)C(=O)N[C@H](C(=O)N[C@@H](Cc2ccccc2)C[C@H](O)[C@H](Cc2ccccc2)NC(=O)OCc2cncs2)C(C)C)cs1 | 2.5 µg/mL | HCT-8 |  |  | <5%
CO[C@@H]1C[C@@H](C[C@H]2CC[C@H](C)[C@H]([C@@H](C)C(=O)O)O2)O[C@]2(O[C@](C)([C@H]3CC[C@@](C)([C@@H]4O[C@@H]([C@H]5O[C@@](O)(CO)[C@H](C)C[C@@H]5C)C[C@@H]4C)O3)C[C@H]2C)[C@@H]1C | 0.032 µg/mL | L929 | Calf isolate |  | -17.38%
CO[C@H]1/C=C/O[C@@]2(C)Oc3c(C)c(O)c4c(O)c(c5c(c4c3C2=O)NC2(CCN(CC(C)C)CC2)N=5)=NC(=O)/C(C)=C\C=C\[C@H](C)[C@H](O)[C@@H](C)[C@@H](O)[C@@H](C)[C@H](OC(C)=O)[C@@H]1C | 5 µM |  |  | cell count | 11.6%
O=C(C[C@H]1NCCC[C@@H]1O)Cn1cnc2cc(Br)c(Cl)cc2c1=O | 0.8 µg/mL | L929 | Calf isolate |  | 89.47%
CC(=O)N[C@@H](CC(C)C)C(=O)N[C@@H](CC(C)C)C(=O)N[C@H](C=O)CCCN=C(N)N | 5 µg/mL |  |  |  | 10.9%
CCN(CC)CCCC(C)Nc1ccnc2cc(Cl)ccc12 | 0.032 µg/mL | L929 | Calf isolate |  | 21.14%
CC[C@H]1OC(=O)[C@H](C)[C@@H](O[C@H]2C[C@@](C)(OC)[C@@H](O)[C@H](C)O2)[C@H](C)[C@@H](O[C@@H]2O[C@H](C)C[C@H](N(C)C)[C@H]2O)[C@](C)(OC)C[C@@H](C)C(=O)[C@H](C)[C@@H](O)[C@]1(C)O | 5 µM |  |  | cell count | 10.3%
N#CC(c1ccc(Cl)cc1)c1c(Cl)cc(-n2ncc(=O)[nH]c2=O)cc1Cl | 0.8 µg/mL | L929 | Calf isolate |  | 9.77%
O=c1[nH]c(=O)n([C@H]2C[C@H](O)[C@@H](CO)O2)cc1I | 10 µg/mL |  |  |  | 84%

Repeating the first 2 entries:

structure	tested at	cells	strain or isolate	method	value
NS(=O)(=O)c1cc([N+](=O)[O-])c(N(CCO)CCO)c([N+](=O)[O-])c1	10 µM	MDCK cells		ELISA / luminescence	0%
O=S(=O)(F)Cc1ccccc1	1000 µM			cell count / microscopy	31.1%